Laboratory results: patent US20200147199A1 (ROCKEFELLER UNIVERSITY, published 2020)
Substitutions are numbered along the chain they refer to.

T1: DENV1 EDIII, polyhistidine-AviTag, produced in HEK-293-6E cells (DENV1)
T1 construct: also called EDIII of DENV1
T1 chain: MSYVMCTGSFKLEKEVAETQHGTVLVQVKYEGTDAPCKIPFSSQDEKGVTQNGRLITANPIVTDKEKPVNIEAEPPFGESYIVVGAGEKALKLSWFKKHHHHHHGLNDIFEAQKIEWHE

T2: WNV EDIII, polyhistidine-AviTag (WNV)
T2 chain: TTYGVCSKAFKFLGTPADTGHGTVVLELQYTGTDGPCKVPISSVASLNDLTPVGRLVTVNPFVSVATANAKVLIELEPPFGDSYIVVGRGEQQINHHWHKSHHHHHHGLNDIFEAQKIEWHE

B1: Z002 (MEX18_27) (antibody, V domains shown)
VH: EVQLLESGGGLVQPGGSLRLSCATSGFTFSTYAMSWVRQAPGKGLEWVSSFSGVDDSTYYAESVKGRFTISRDNSKNTVYLQMTRLRAEDTAVYYCAKDRGPRGVGELFDSWGQGTLVTVSS
VL: DIQMTQSPSTLSASVGDRVTMTCRASQSINRWLAWYQQKPGKAPKLLIYTTSTLKSGVPSRFSGSGSGTEFTLTISSLQPDDFATYYCQHFHSVPWTFGQGTKVEIK
B2: Z003 (MEX18_58) (antibody, V domains shown)
VH: EVQLLESGGGLVQPGGSLRLSCATSGFTFTTFAMSWVRQAPGKGLEWVSSISGADDSTYYAASVKGRFTISRDNSRSTLFLQMNSLRAEDTAVYYCAKDRGPRGVGELFDSWGQGTLVTVSS
VL: B1 VL with M21I, N30S, R31K, K45R, H92F
B3: Z005 (MEX18_13) (antibody, V domains shown)
VH: EVQLLESGGGLVQPGGSLRLSCAASGFTFSSYAMSWVRQAPGKGLEWVSSFSGIDDSTWYADSVKGRFTISRDNSKSTLYLQMNSLRAEDTAVYYCAKDRLVRGFAEVLDYWGRGTLVTVSS
VL: DIQMTQSPSSLSASVGDRVTITCRASQDISKYLAWYQQRPGKVPNLLIYTASTLQSGVPSRFSGSGSGTHFTLTISSLQPEDVATYYCQKYNSVPWTFGQGTKVEIK
B4: Z007 (MEX105_50) (antibody, V domains shown)
VH: EVQLLESGGGLVRPGGSLRLSCTASGFTFRRYAMAWVRQAPGKGLEWVSLIYDGDDSTYYAKSVKGRFAISRDNSKNTLSLQMNSLRAEDTAVYYCVKDRDNGWSSIVDWGQGTLVTVSS
VL: DIQMTQSPSTLSASVGDRVTITCRASHSISGWLAWYQQKPGKAPKLLIYQASILESGVPSRFSGSGSGTEFTLTIGSLQPEDFATYFCQQYSTFWTFGQGTKVEIK
B5: Z008 (MEX105_60) (antibody, V domains shown)
VH: B4 VH with Y32F, Y52W, D53N, K62E, K65R, A69T, K76H, N84R, V93I
VL: B4 VL with H27Q, S28T, S30G, G31N, I53V, G76S
B6: Z009 (MEX105_64) (antibody, V domains shown)
VH: B4 VH with D53N, K62E, A69T, I70V, K76Q, V93I, K98R
VL: B4 VL with H27R, S28T, S30G, G31S, S56G, G66V, G76R
B7: Z011 (MEX105_15) (antibody, V domains shown)
VH: EVQLLESGGGLVQPGGSLRLSCAASGFTFRTYAMSWVRQPPGKGLEWVSSISAREDSTYFAASVRGRFTISRDNSKNTLYLQMNNLRAEDTALYYCAKDRLQLGVGELYESWGQGTLVTVSS
VL: B1 VL with M21I, S28N, R31S, T50M, T51A, T53S, K55Q, I75V, F91Y, V94Y
B8: Z013 (MEX18_84) (antibody, V domains shown)
VH: EVQLLESGGGLVQPGGSLRLSCAASGFTFTSYAMNWVRQAPGKGLEWVSGIGGRGAIAGDGSIYYADSVKGRFTISRDNSKNIVYLQMNGLRVEDTAVYYCAKDRVAFDGFHVWGQGTLVTVSS
VL: DIQMTQSPPTLSASVGDRVTITCRASQSISSWLAWYQQKPGKAPKLLIYKASSLESGVPSRFSGSGSGTEFSLTISSLQPEDFATYYCQQYNSYPWTFGQGTKVEIK
B9: Z036 (BRA112_91) (antibody, V domains shown)
VH: EVQLLESGGDLVQPGGSLRLSCAASGFTFSTYGMAWVRQAPGKGLEWLSSISSVDDSKYYAASVKGRFTISRDNSRNTLYLHMNSLRVDDTAVYYCAKDRIPHGLGELYANWGQGTLVTVSS
VL: DIQMTQSPSTLSASVGDRVTITCRASQSISGWLAWYQQKPGKAPRLLMHKASNLYSGVPSRFSGSGSGTEFTLTISSLQPDDFATYYCQHYHSYPYTFGQGTKVEIK

Assays:
[1] = target: T1, DENV1 EDIII, polyhistidine-AviTag, …; assay: cross-reactivity ELISA
[2] = target: T2, WNV EDIII, polyhistidine-AviTag; assay: cross-reactivity ELISA

Row | Binder | binding result [1] | binding result [2]
1 | B1 | binds | no binding (tested: 10 µg/ml)
2 | B2 | binds | no binding (tested: 10 µg/ml)
3 | B3 | binds | no binding (tested: 10 µg/ml)
4 | B4 | binds | no binding (tested: 10 µg/ml)
5 | B5 | binds | no binding (tested: 10 µg/ml)
6 | B6 | binds | no binding (tested: 10 µg/ml)
7 | B7 | binds | no binding (tested: 10 µg/ml)
8 | B8 | binds | no binding (tested: 10 µg/ml)
9 | B9 |  | no binding (tested: 10 µg/ml)
